Reference: PubChem BioAssay AID624099 (ICCB-Longwood, 2012)
Purpose: 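Host factors E2 relies on to silence an HPV18 LCR reporter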 (primary screen). System: human C33A cervical carcinoma cells (HPV-negative) stably expressing BPV1 E2 and an HPV18 LCR luciferase reporter. Knock-down reagent: siRNA pool against human genes, 40 nM. Time to read-out: 72 h. Detection: 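HPV18 LCR reporter light per well, converted to plate-wise z-scores that exclude control wells, and averaged over triplicate plates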. Scale: mean z-score and z-score: higher = stronger reporter signal, weaker E2 silencing. Active means: 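Mean z ≥ 2 together with z ≥ 2 in two or more of the three replicates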.
The whole screen tested about 21,000 reagents; below is a random part of them. 497 of all reagents (2.4%) count as active. 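Higher z means weaker E2 silencing; only reporter increases were scored, and knock-downs that hurt cell survival may mask genuine repressor factors.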

SLC22A16 (GeneID 85413): mean z-score = 0.52; z-score, replicate A = 0.88; z-score, replicate B = 0.4; z-score, replicate C = 0.28; Outcome = inactive
WDR37 (GeneID 22884): mean z-score = -0.55; z-score, replicate A = -0.7; z-score, replicate B = -0.32; z-score, replicate C = -0.64; Outcome = inactive
IFT56 (GeneID 79989): mean z-score = -0.37; z-score, replicate A = -0.06; z-score, replicate B = -0.28; z-score, replicate C = -0.78; Outcome = inactive
IDH3G (GeneID 3421): mean z-score = 2; z-score, replicate A = 1.97; z-score, replicate B = 1.78; z-score, replicate C = 2.24; Outcome = inactive
CCDC43 (GeneID 124808): mean z-score = -0.72; z-score, replicate A = -0.78; z-score, replicate B = -0.61; z-score, replicate C = -0.76; Outcome = inactive
IFITM1 (GeneID 8519): mean z-score = -1.66; z-score, replicate A = -1.67; z-score, replicate B = -1.48; z-score, replicate C = -1.82; Outcome = inactive
NADSYN1 (GeneID 55191): mean z-score = 1.68; z-score, replicate A = 1.93; z-score, replicate B = 1.68; z-score, replicate C = 1.42; Outcome = inactive
CTRL (GeneID 1506): mean z-score = -0.88; z-score, replicate A = -1.12; z-score, replicate B = -0.89; z-score, replicate C = -0.64; Outcome = inactive
DERA (GeneID 51071): mean z-score = 0.1; z-score, replicate A = 0.27; z-score, replicate B = 0.15; z-score, replicate C = -0.13; Outcome = inactive
ICMT (GeneID 23463): mean z-score = -1.37; z-score, replicate A = -0.99; z-score, replicate B = -1.65; z-score, replicate C = -1.47; Outcome = inactive

Ordered by “mean z-score” (low to high): some entries from above.
IFITM1 (GeneID 8519): mean z-score = -1.66; z-score, replicate A = -1.67; z-score, replicate B = -1.48; z-score, replicate C = -1.82; Outcome = inactive
NADSYN1 (GeneID 55191): mean z-score = 1.68; z-score, replicate A = 1.93; z-score, replicate B = 1.68; z-score, replicate C = 1.42; Outcome = inactive

Further records:
DDX46 (GeneID 9879): mean z-score = -0.34; z-score, replicate A = -0.66; z-score, replicate B = 0.34; z-score, replicate C = -0.7; Outcome = inactive
TTC7B (GeneID 145567): mean z-score = -0.61; z-score, replicate A = -0.92; z-score, replicate B = -0.55; z-score, replicate C = -0.35; Outcome = inactive
NFYA (GeneID 4800): mean z-score = 0.85; z-score, replicate A = 0.71; z-score, replicate B = 0.78; z-score, replicate C = 1.06; Outcome = inactive
SMOC2 (GeneID 64094): mean z-score = 0.12; z-score, replicate A = 1.55; z-score, replicate B = -0.86; z-score, replicate C = -0.32; Outcome = inactive
PRIM1 (GeneID 5557): mean z-score = 0.19; z-score, replicate A = -0.32; z-score, replicate B = 0.52; z-score, replicate C = 0.36; Outcome = inactive
SFT2D2 (GeneID 375035): mean z-score = -0.01; z-score, replicate A = -0.22; z-score, replicate B = -0.16; z-score, replicate C = 0.37; Outcome = inactive
KIRREL3 (GeneID 84623): mean z-score = 1.24; z-score, replicate A = 1.48; z-score, replicate B = 1.19; z-score, replicate C = 1.04; Outcome = inactive
FAM76B (GeneID 143684): mean z-score = 1.63; z-score, replicate A = 1.13; z-score, replicate B = 1.18; z-score, replicate C = 2.56; Outcome = inactive
KCNN3 (GeneID 3782): mean z-score = -0.15; z-score, replicate A = -0.18; z-score, replicate B = -0.08; z-score, replicate C = -0.17; Outcome = inactive
ANTXR1 (GeneID 84168): mean z-score = -0.2; z-score, replicate A = -0.24; z-score, replicate B = -0.11; z-score, replicate C = -0.25; Outcome = inactive
RAP1A (GeneID 5906): mean z-score = -0.8; z-score, replicate A = -0.99; z-score, replicate B = -0.84; z-score, replicate C = -0.56; Outcome = inactive
